Data: patent US11590110B2, “Compositions and methods for reactivating latent immunodeficiency virus using a GSK-3 inhibitor” (priority 2017, dated 2023)

Test system: latent HIV-1 in blood CD4+ T cells from infected individuals on suppressive ART

O=c1sn(-c2cccc3ccccc23)c(=O)n1Cc1ccccc1 [Tideglusib, 4-benzyl-2-(naphthalen-1-yl)-1,2,4-thiadiazolidine-3,5-dione]
virus-associated HIV-1 mRNA, mean fold-change (1 μM, 48 hours, relative to untreated control): 38.32 fold
production and release of virions vs untreated control samples (blood CD4+ T cells): about 40 fold
